Measured values: paper PMC3227725, “The Cryptosporidium parvum Kinome” (BMC Genomics, 2011)

By UniProt entry, the sequences of proteins in these tests, tags left out. Residues count along the entry.
UniProt A3FQ16, 1-538: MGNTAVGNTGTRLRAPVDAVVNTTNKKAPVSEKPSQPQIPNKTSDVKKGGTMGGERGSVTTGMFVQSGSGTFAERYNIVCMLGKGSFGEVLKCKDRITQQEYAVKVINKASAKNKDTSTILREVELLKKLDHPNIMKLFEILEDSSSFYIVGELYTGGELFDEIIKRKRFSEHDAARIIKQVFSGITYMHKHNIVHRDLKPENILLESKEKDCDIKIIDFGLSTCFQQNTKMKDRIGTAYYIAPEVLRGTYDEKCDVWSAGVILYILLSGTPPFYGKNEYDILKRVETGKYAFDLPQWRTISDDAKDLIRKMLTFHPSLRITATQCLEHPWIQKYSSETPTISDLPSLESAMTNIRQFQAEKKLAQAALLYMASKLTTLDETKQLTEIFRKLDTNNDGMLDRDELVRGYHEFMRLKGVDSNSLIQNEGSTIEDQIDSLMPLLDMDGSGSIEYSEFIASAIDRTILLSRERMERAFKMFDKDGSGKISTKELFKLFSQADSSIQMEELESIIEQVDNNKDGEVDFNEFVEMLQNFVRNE

biological target: CpCDPK1 (Cryptosporidium parvum, UniProt A3FQ16); assay: CpCDPK1 inhibition, NADH-coupled ATPase (PK/LDH) assay; format: biochemical; settings: 10 nM CpCDPK1, 500 μM ATP and 500 μM Syntide2

| Structure (SMILES) | IC50 |
| --- | --- |
| CC(C)(C)n1nc(Cc2cccc3ccccc23)c2c(N)ncnc21 | 0.9 nM |
| Nc1ncnc2c1c(Cc1cccc3ccccc13)nn2C1CCCC1 | 5.6 nM |
| Cc1ccc(Cc2nn(C(C)(C)C)c3ncnc(N)c23)cc1 | 96 nM |
| COc1cccc(Cc2nn(C(C)(C)C)c3ncnc(N)c23)c1 | 2.8 nM |
| CC(C)(C)n1nc(CC2CCCC2)c2c(N)ncnc21 | 616 nM |
| Cc1ccc(-c2nn(C(C)(C)C)c3ncnc(N)c23)cc1 | 7 nM |
| CC(C)(C)n1nc(CCc2ccccc2)c2c(N)ncnc21 | 4.7 nM |
| CC(C)(C)n1nc(Cc2cccc(I)c2)c2c(N)ncnc21 | 2.1 nM |
| CC(C)(C)n1nc(Cc2cccc(Br)c2)c2c(N)ncnc21 | 2.1 nM |
| COc1ccccc1Cc1nn(C(C)(C)C)c2ncnc(N)c12 | 22 nM |
| CC(C)(C)n1nc(Cc2ccccc2)c2c(N)ncnc21 | 3.4 nM |
| CC(C)(C)n1nc(-c2cccc3ccccc23)c2c(N)ncnc21 | 88 nM |
| Cc1ccccc1Cc1nn(C(C)(C)C)c2ncnc(N)c12 | 15.2 nM |
